A mixed list of measured activities; the numbers were collected in NIAID ChemDB.

Shared fields: enzyme or target tests; species: HIV-1; protein: Integrase; endpoint: IC50

Neighbouring rows are from separate reports.

SMILES,method,result
O=C1C(=O)N(Cc2ccc(Br)cc2)c2ccccc21,3′ processing,900 µM
CC(C)NC(=O)c1cn2ccn(Cc3cccc(Cl)c3)c(=O)c2c(O)c1=O,ELISA,0.01–0.1 µM
Cc1cc(CN(C)C(=O)/C=C(\O)C(=O)O)ccc1F,strand transfer,<70 µM
O=C1c2c(O)c(=O)ccn2CCN1Cc1ccccc1,ELISA,0.1–1 µM
CC(C)N(CCCc1ccccc1)C(=O)/C=C(\O)C(=O)O,strand transfer,<70 µM
O=c1c(-c2ccccc2)cn2ccn(Cc3cccc(Cl)c3)c(=O)c2c1O,ELISA,<0.01 µM
O=S(=O)(Cc1cccc2cccnc12)c1nc2ccccc2s1,3′ processing,>1000 µM
CC(=O)c1cn2ccn(Cc3ccc(F)cc3)c(=O)c2c(O)c1=O,ELISA,<0.01 µM
O=C(O)/C(O)=C/C(=O)N(CCc1ccncc1)Cc1ccc(F)cc1,strand transfer,<70 µM
CN(C)CC1c2nc(C(=O)NCc3ccc(F)cc3)c(O)c(=O)n2CCN1C,ELISA,<10 µM
CC(C)(C)C(=O)c1cn2c(c(O)c1=O)C(=O)N(Cc1ccc(F)cc1)CC2,ELISA,0.01–0.1 µM
O=C1C(=O)N(Cc2ccccc2[N+](=O)[O-])c2ccccc21,strand transfer,600 µM
Cc1cc(CNC(=O)c2nc3n(c(=O)c2O)CCN(C(C)C)CC3N(C)C(=O)C(=O)N(C)C)ccc1F,ELISA,<10 µM
O=C1c2c(O)c(=O)ccn2C2(CCCCC2)CN1Cc1ccc(Cl)c(Cl)c1,ELISA,0.01–0.1 µM
COc1ccc(CN(Cc2ccc(F)cc2)C(=O)/C=C(\O)C(=O)O)cc1Cl,strand transfer,<70 µM
Cc1cc(=O)n(-c2ccccc2)n1C(=O)/C=C/c1ccco1,strand transfer,650 µM
CCN(CC)C(=O)c1cn2ccn(Cc3cccc(Cl)c3)c(=O)c2c(O)c1=O,ELISA,0.01–0.1 µM
CN(Cc1ccc(F)c(Cl)c1)C(=O)/C=C(\O)C(=O)O,strand transfer,<70 µM
COC(=O)N1CCn2c(nc(C(=O)NCc3ccc(F)cc3)c(O)c2=O)C1CN(C)C,ELISA,<10 µM
Cc1cccc(CNC(=O)/C=C(\O)C(=O)O)c1,strand transfer,<70 µM
CN1CCn2c(nc(C(=O)NCc3ccc(F)cc3S(C)(=O)=O)c(O)c2=O)C1(C)C,ELISA,<10 µM

Repeating the final 2 entries:

SMILES,method,result
Cc1cccc(CNC(=O)/C=C(\O)C(=O)O)c1,strand transfer,<70 µM
CN1CCn2c(nc(C(=O)NCc3ccc(F)cc3S(C)(=O)=O)c(O)c2=O)C1(C)C,ELISA,<10 µM

Two numbers with a dash give a range or band. ICn: concentration for n% inhibition.